For experiment [1], the target named is M. tuberculosis RecA intein (Mycobacterium tuberculosis, UniProt P9WHJ3). Description: GFP-RecA intein fusion fluorometric protein splicing assay (Assay #1, Intein & GFP). The class given is biochemical. To be noted: read-out: RecA intein IC50; fluorescent GFP-linked protein splicing, 5 to 40 μM tested.
For experiment [2], the system named is BCG. Description: BCG MIC. The experiment is classed as cell-based.
Experiment [3] concerns Mtu H37Rv. Description: Mtu H37Rv MIC. The class given is cell-based, M. tuberculosis.

Chains of the proteins cited; added tags and fusions are not shown. A line that says so, or that is headed by a name, gives the form on record, which may keep a tag or linker.
UniProt P9WHJ3, with tags, fused parts or gaps limits assumed: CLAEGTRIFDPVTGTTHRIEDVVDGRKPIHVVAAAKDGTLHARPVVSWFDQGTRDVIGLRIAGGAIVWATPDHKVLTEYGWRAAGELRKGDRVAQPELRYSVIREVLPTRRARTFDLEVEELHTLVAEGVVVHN

A value given as a limit tells only on which side of the number the result lay.

Regarding `O=C(c1c[nH]c(C(=O)C(Cl)(Cl)Cl)c1)c1c(Cl)cccc1Cl`, the 50% inhibitory concentration (IC50) in experiment [1] is under 5 µM. For `Cc1cc(Sc2c([N+](=O)[O-])cc(C(F)(F)F)cc2[N+](=O)[O-])c(Cl)cc1Cl`, the IC50 in experiment [1] is under 5 µM. Turning to `N=C(N)c1ccc(NC(=O)Nc2cccc(C(=N)N)c2)cc1`, in experiment [1], the IC50 was found to be 8 µM.

As for `Cc1nn2c(c1[N+](=O)[O-])n1nc(C)c([N+](=O)[O-])c1n1nc(C)c([N+](=O)[O-])c21`, in experiment [1], the IC50 was found to be 6 µM. In experiment [2], the “BCG MIC” value was found to be 5 mg/L. Besides, in experiment [3], the “Mtu H37Rv MIC” value is 10 mg/L.
